Two molecules from patent US5756145A, “Durable, Resilient and effective antimicrobial coating for medical devices and method of coating therefor” (priority 1995, dated 1998) can be followed below.

The data set in a line: HPLC measurement of residual antiseptic bonded to coated devices (Example 7). To be noted: one week in serum, vs amount prior to incubation.

Molecules are shown by their SMILES.

For `[H]/N=C(\N/C(=N/[H])NCCCCCCNC(=N)NC(=N)Nc1ccc(Cl)cc1)Nc1ccc(Cl)cc1` [Chlorhexidine], the “residual amount of chlorhexidine on antiseptic-coated devices” value was determined as 44.9%.

With `Cc1cc(O)cc(C)c1Cl` [Chloroxylenol, 4-chloro, 3,5-dimethyl phenol], the “residual amount of chloroxylenol on antiseptic-coated devices” value was 46.1%.
